Data taken from patent US20250382354A1 (INSTITUTE FOR RESEARCH IN BIOMEDICINE IRB, published 2025).

Key:
[1] = molecular target: T1, CRCoV-240/05 HR2 peptide (CRCoV-240/05); assay: peptide ELISA
T1 construct: domain: HR2 peptide

[2] = molecular target: MERS S ectodomain (MERS); assay: ELISA on coated S

Row | Binder | EC50 [1] [µg/mL] | EC50 [2] [µg/mL]
1 | hr2.021 (antibody, V domains shown) VH: QVQLVQSGAEVKKPGASVKVSCKASEAIFSGSYLHWVRQAPGQGLEWMGIITPSGDKTFYAQRFQGRLTMTRDTSTNTLHMHLSGLNSEDTAMYYCARQADKGGWDYWGQGTLVTVSS VL: EIVLTQSPGTLSLSPGERATLSCRASQSVTSNYVAWYQQKPGQAPRLLIYGASTRATGIPDRFSGGGSGTDFTLTITRLEPEDFAVYYCQQYGSSPPTFTFGPGTKVDIK | 0.0245 | 0.0584
2 | hr2.024 (antibody, V domains shown) VH: QVQLVQSGAEVKKPGASVKVSCKASEDIFTDSYLHWVRQAPGQGLEWMGIITPSGDKTFYAQQFQGRLTMTRDPSTNTLYMFLSGLRSDDTAMYFCARQAEKGGWDYWGHGTLVTVSS VL: EIVLTQSPGTLSLSPGQRATLSCRSSQTITSNYLAWYQQRPGQAPRLLIYGASIRATGIPDRFSGSGSGTDFTLTISRLEPEDFAVYYCQQYGSSPPTFIFGPGTKVDIK | 0.0549 | 0.0802
3 | hr2.086 (antibody, V domains shown) VH: EVQLLESGGGLVQPGGYLRLSCAASGFTFSSYAMSWVRQAPGKGLEWVSVISGGGGSAYYADSVKGRFTISRDNSKNTLYLQMNSLRAEDTAVYYCAKIGMILVFDYWGQGTLVTVSS VL: EIVLTQSPGTLSLSPGERATLSCRASQSVSNNYLAWYQQKPGQAPRLLISGASSRATGIPDRFSGSGSGTDFTLTISRLEPEDFAVYYCQQYGSSPPTFGQGTKVEIK | 0.246 | 1.16
4 | hr2.094 (antibody, V domains shown) VH: EVQLVESGGGLVQPGGSLRLSCAASGFTFSTFWMTWVRQAPGKGLEWVANIKSDGSEKYYVDSVKGRFTISRDNAKNSLYLQMNSLRAEDTAVYYCATWFGLHWGQGTLVTVSS VL: DIVMTQSPDSLAVSLGERASINCKSSQTVLYSSNNKNYLAWYQQKPGQPPKLLIHWASTRDSGVPDRFSGSGSGTDFTLTISSLQAEDVAVYYCQQYHRIPWTFGRGTKVEIK | 0.0141 | 0.124
5 | hr2.017 (antibody, V domains shown) VH: EVQLVESGGGLVQPGGSLRLSCAVSGFAFSSSWMHWIRQAPGRGLVWVSRINRDGSTTDYADSVKGRFTISRDNAKATLYLQMNSLRAEDTAVYYCATMGFDYWGQGALVTVSS VL: DIVMTQSPDSLAVSLGERATINCKSSQNVLYSSNNKNHLSWYQQKPGQPPKLLIYWASTRKSGVPDRFSGSGSGTDFTLTINSLQAEDVAVYYCQQYFSTPNTFGQGTKLEIK | 0.018 | 
6 | hr2.020 (antibody, V domains shown) VH: EVQLVQSGAEVKKPGESLKISCKGSGYRFASHWIGWVRQMPGKGLQWMGIIYPGDSDTKYSPSFQGQVTISADKSINTVYLHWTSLKASDTAVYYCARRPPHLDGGDSPIRFDHWGQGTLVTVSS VL: QSVLTQPPSASGTPGQRVTISCSGSRSNIGSNDVYWYQQFPGTAPKLLIYRNNQRPSGVPDRFSGSKSGTSASLAISGLRSEDEADYYCATWDDRLTGVFGGGTKLTVV | 0.0409 | 
7 | hr2.027 (antibody, V domains shown) VH: EVQLVQSGAEVKKPGESLKISCKGSGYSFANYWIAWVRLMPGKGLEWMGFIFPGDSDTRYSPSFQGQVTISADKSITTAYLHWSSLKASDTAIYFCARRRGNSGNHDPYGMDVWGHGTTVTVSS VL: not shown | 0.0413 | 
8 | hr2.090 (antibody, V domains shown) VH: EVQLLESGGGLVQPGGSLRLSCAASGVTFSRYAMSWVRQAPGKGLEWVSTISGGGGGTYYADSVKGRFTISRDNSKNTLYLQMNSLRAEDTAVYYCATLLTVPGPYYFEYWGQGTLVTVSS VL: EIVLTQSPGTLSLSPGERATLSCRASQSVSSSYLAWYQQKPGQAPRLLIYGASSRATGIPDRFSGSGSGTDFTLTISRLESEDFAVYYCQHSRFTFGPGTRVDIK | 0.658 | 
9 | hr2.019 (antibody, V domains shown) VH: EVQLVESGGGLVKPGGSLRLSCAASGSSVIDVWMNWVRQAPGKGLEWVGRIKTKASGAATDYGAPVKGRFTISRDDSKNLSYLQMNSLRAEDTGIYYCTTSPLPNFDYWGRGTLVTVSS VL: DIVMTQSPDFLAVSLGETATINCRSSQSVFYFANNKNYLAWYQQKPGQPPKLLIYWASKRESGVPDRFSGSGSGTDFTLTISSLQAEDVATYYCQQYSSPAITFGPGTKVDIK |  | 0.506
